Results of unrelated studies side by side (data: NIAID ChemDB).

All rows: whole-cell or culture tests; agent: Mycobacterium tuberculosis

Blank or dashed fields: not listed here. Fold resistance has wild type as its base. Percent inhibition refers to the dose given; in toxicity tests it is the harm to the cells. MIC bound: limit read from a one-dose screen. Rows are shuffled and stem from different studies. MIC50, MIC90 and the like: level of inhibition, or share of isolates inhibited. a–b is a range or a potency band.

| structure | mutations | method | measure | tested at | strain or isolate | setting | result |
|---|---|---|---|---|---|---|---|
| CCOc1ccc2c(c1)n([O-])c1cc(Br)ccc1[n+]2=O |  |  | MIC |  | KM-R |  | 0.8 µg/mL |
| O=c1oc2ccccc2c(O)c1C1=NN(c2ccccc2)C(c2ccc(Cl)cc2Cl)C1 | Isoniazid-resistant | agar | MIC90 |  | INHR-MTB |  | 21.78 µg/mL |
| CCCCn1c(-c2ccc(Br)cc2)cs/c1=N\NC(=O)COc1cnccn1 |  |  | MIC |  | H37Rv |  | 7.4 µg/mL |
| Cc1ccc(Nc2cc(Cl)nc(N)n2)cc1 |  | BACTEC | MIC bound |  | H37Rv |  | >12.5 µg/mL |
| CN1Cc2cc(N3CCN(C(=O)c4cccc(Cl)c4)CC3)ccc2C1=O |  | turbidity | MIC90 |  | Wild type without biotin |  | >50 µM |
| O=C(/C=C/c1c(F)cccc1Cl)c1ccccc1 |  | resazurin | MIC |  | H37Rv | 7 d | 16 µg/mL |
| CCCCCC/C=C\CCCCCCCCCC1=C(CN2CCN(C)CC2)C(=O)C=C(OC)C1=O |  | BACTEC | MIC |  | H37Rv |  | 16 µg/mL |
| C1=C(c2nc(-c3cccnc3)no2)c2ccccc2C12CCN(CC1CCCO1)CC2 | Ofloxacin-resistant | resazurin | MIC |  | 12119 |  | 3.12 µM |
| O=C1NC(NNC(=O)c2ccncc2)=N/C1=C\c1ccc(Cl)cc1Cl |  | resazurin | inhibition | 12.5 µg/mL | H37Rv |  | 0% |
| CC1=C2C(=O)[C@H]3[C@@H](CC=C4C[C@@H](O)CC[C@@]43C)[C@@H]2CC[C@]12O[C@@H]1C[C@H](C)CN[C@H]1[C@H]2C |  | BACTEC | MIC bound |  | H37Rv |  | ≤128 µg/mL |
| CCc1nc2sc(C)cn2c1C(=O)NCc1cccc(S(F)(F)(F)(F)F)c1 |  | resazurin | MIC90 |  | H37Rv |  | <2 µM |
| O=C(/C=C/c1c(F)cccc1Cl)c1ccc(F)cc1 |  | resazurin | MIC |  | H37Rv | 14 d | 64 µg/mL |
| CC(C)(O)C1COC2=C1C(=O)c1ccccc1C2=O |  | BACTEC | MIC bound |  | H37Rv |  | >12.5 µg/mL |
| Cc1cccc(C(N)=Nc2nc(-c3ccccn3)cc3ccccc23)c1 |  |  | MIC |  | J-2983 |  | 0.5 µg/mL |
| CC(C)=CCOc1c2ccoc2cc2oc(=O)ccc12.NNC(=O)c1ccncc1 | Isoniazid-resistant | agar | MIC100 |  | H37Rv clinical isolate CRY2 |  | 6.25 µg/mL |
| O=Nc1c(-c2ccccc2)nc2cc(-c3ccccc3)[nH]n12 |  | BACTEC | inhibition | 12.5 µg/mL | H37Rv |  | 0% |
| O=C(/C=C/c1ccccc1)c1ccc(F)cc1 |  | resazurin | MIC |  | H37Rv | 21 d | 32 µg/mL |
| Cc1ccc(OC/C(N)=N\NC(=O)c2ccncc2)cc1 |  |  | MIC |  | ATCC 35820 (streptomycin-resistant) |  | 6.25 µg/mL |
| O=C1NC(Nc2cccc(Cl)c2)=N/C1=C\c1ccccc1Cl |  |  | MIC |  | H37Rv |  | >12.5 µg/mL |
| CC(=O)NC[C@H]1CN(c2ccc(N3CCOCC3)c(F)c2)C(=O)O1 |  |  | MIC |  | Strain 5 |  | 0.5 µg/mL |
| NNC(=O)c1ccncc1 |  |  | MIC |  | MTB21 (S) |  | 0.12 µg/mL |
| Cc1ccn2c(C(=O)NCc3ccc(N4CCN(C(=O)OCC(C)C)CC4)c(F)c3)c(C)nc2c1 |  | resazurin | MIC90 |  | H37Rv |  | <2 µM |
| CCN(C(=O)COc1cc2c(O)c3c(O)c(C)c4c(c13)C(=O)[C@@](C)(O/C=C/[C@H](OC)[C@@H](C)[C@@H](OC(C)=O)[C@H](C)[C@H](O)[C@H](C)[C@@H](O)[C@@H](C)/C=C/C=C(/C)C(=O)N2)O4)N1CCOCC1 |  |  | MIC |  | H37Rv |  | 0.37 µg/mL |
| NNC(=O)c1ccncc1 |  |  | MIC |  | Isolate TN6515 |  | 0.06 µg/mL |
| CCOC(=O)C1(n2[nH]c(=O)n(-c3ccccc3)c2=O)CC(C)OC1=O |  | BACTEC | inhibition | 12.5 µg/mL | H37Rv |  | 0% |
| CCN(CC)CCN(CC)CCN(C)C(=O)COc1cc2c(O)c3c(O)c(C)c4c(c13)C(=O)[C@@](C)(O/C=C/[C@H](OC)[C@@H](C)[C@@H](OC(C)=O)[C@H](C)[C@H](O)[C@H](C)[C@@H](O)[C@@H](C)/C=C/C=C(/C)C(=O)N2)O4 |  |  | MIC |  | H37Rv |  | 0.18 µg/mL |
| COC(=O)c1ccc(N2CCN(C(=O)c3cccc(Cl)c3)CC2)cc1 |  | turbidity | MIC50 |  | Wild type without biotin |  | >50 µM |
| O=C1NC(NNC(=O)c2ccncc2)=N/C1=C\c1ccc(Cl)cc1 |  |  | MIC |  | Ciprofloxacin-resistant |  | 3.13 µg/mL |
| Fc1cccc(NC(=S)SCc2ccco2)c1 |  | BACTEC | MIC bound |  | H37Rv |  | ≤128 µg/mL |
| CCc1nc2ccc(Cl)cn2c1C(=O)NCc1cccc(S(F)(F)(F)(F)F)c1 |  | resazurin | MIC90 |  | H37Rv |  | <2 µM |
| Cc1ccccc1OC/C(N)=N\NC(=O)c1ccncc1 |  |  | MIC |  | ATCC 35820 (streptomycin-resistant) |  | 25 µg/mL |
| CC(=O)c1ccc(N2CCC(C(=O)c3cccc(Cl)c3)CC2)cc1 |  | turbidity | MIC90 |  | BioA underexpression strain |  | >50 µM |
| Cc1ccc(-c2noc(C3=CC4(CCN(CC5CCCO5)CC4)c4ccccc43)n2)cn1 | Spiroindene-resistant | turbidity | MIC |  | TB377 |  | 15.5 µM |
| OC(c1cc(C(F)(F)F)nc2c(Cl)cc(Cl)cc12)C1CCCCN1 |  | resazurin | MIC bound |  | H37Rv |  | <6.25 µg/mL |
| Cc1ccn2c(C(=O)NCc3ccc4c(c3)CCO4)c(C)nc2c1 |  | resazurin | MIC90 |  | H37Rv |  | <2 µM |
| CC(=O)c1ccc(N2CCN(C(=O)c3cccc(Cl)c3)CC2)cc1 |  | turbidity | MIC90 |  | BioA overexpression strain |  | >50 µM |
| Cc1cc2oc(=O)c(C(=O)/C=C/c3ccccn3)c(O)c2cc1C | Isoniazid-resistant | agar | MIC90 |  | INHR-MTB |  | >6.25 µg/mL |
| C[C@]1(COc2ccc(N3CCC(Oc4ccc(OC(F)(F)F)cc4)CC3)cc2)Cn2cc([N+](=O)[O-])nc2O1 |  |  | MIC90 |  | 36 strains (rifampicin-resistant) |  | 0.012 µg/mL |
| C1=C(c2nc(-c3ccccc3)no2)c2ccccc2C12CCN(CC1CC1)CC2 |  | colony count / visual reading | MBC |  | H37Rv |  | 0.4 µM |
| O=[N+]([O-])c1cccn2nc(COCCO)nc12 |  | resazurin | MIC bound |  | H37Rv |  | >6.25 µg/mL |
| CC(C)N1C(=O)CS/C1=N\NC(=O)COc1cnccn1 |  |  | MIC |  | H37Rv |  | 196 µg/mL |
| COc1ccc(CN2C(=O)C3(CCN(CC4CC4)CC3)c3ccccc32)cc1 |  | resazurin | MIC |  | H37Rv |  | 50 µM |
| Cc1ccn2c(C(=O)NCc3ccc(NCCOCCNC(=O)OC(C)(C)C)c(F)c3)c(C)nc2c1 |  | resazurin | MIC90 |  | H37Rv |  | 2–10 µM |
| CCCNC(=O)N1CC(CN2CCN(c3ccccc3)CC2)O/C1=N/C(=O)Nc1ccccc1 |  | resazurin | MIC bound |  | H37Rv |  | >6.25 µg/mL |
| COc1cccc2c1cc1c3c(cc4c(c32)OCO4)C(=O)N1 |  | resazurin | MIC |  | H37RvIr |  | 25 µg/mL |
| COc1ccc(N/C=C2\C(=O)CCc3c2oc2cc(Cl)c(O)c(Cl)c32)cc1 |  | BACTEC | inhibition | 12.5 µg/mL | H37Rv |  | -24% |
| CCc1ccc([C@H]2C[C@@H](C(F)(F)F)n3ncc(C(=O)NCc4ccc(OC)cc4)c3N2)cc1 | MmpL3: Ile292Ser | fluorescence | fold resistance |  | H37Rv |  | 1 |
| O=c1[nH]cc([C@@H]2O[C@H](CO)[C@@H](O)[C@H]2O)c(=O)[nH]1 |  | BACTEC | inhibition | 12.5 µg/mL | H37Rv |  | 9% |
| CCc1nc2ccc(Cl)cn2c1C(=O)NCc1ccc(NCCN2CCOCC2)c(F)c1 |  | resazurin | MIC90 |  | H37Rv |  | 2–10 µM |
| O=C(/C=C/c1ccc(F)cc1)c1ccc(F)cc1 |  | MTT | MIC |  | H37Rv | 7 d | 32 µg/mL |
| C/C=C1/C(=O)O[C@]23C=C[C@@H]4C(C(=O)OC)=CO[C@H](O[C@@H]12)[C@@H]43 |  | MTT | MBC |  | MDR1 clinical isolate |  | 2.5 µg/mL |
| CC(=O)N(N=O)c1cc(Cl)ccc1Cl |  | BACTEC | MIC |  | H37Rv |  | ≥12.5 µg/mL |
| CC(=O)c1ccc(N2CCN(C(=O)c3cscn3)CC2)cc1 |  | turbidity | MIC50 |  | BioA overexpression strain |  | >50 µM |
| CCOc1ccc(NC(=S)/N=C/C(C(=O)Nc2ccccc2C)=C(\C)O)cc1 |  | BACTEC | inhibition | 6.25 µg/mL | H37Rv |  | 98% |
| CO[C@H]1/C=C/O[C@@]2(C)Oc3c(C)c(O)c4c(O)c(cc(OCC(=O)N(CCCl)CCCl)c4c3C2=O)NC(=O)/C(C)=C\C=C\[C@H](C)[C@H](O)[C@@H](C)[C@@H](O)[C@@H](C)[C@H](OC(C)=O)[C@@H]1C |  |  | MIC |  | H37Rv |  | 0.09 µg/mL |
| O=C(COc1cnccn1)N/N=c1\scc(-c2ccc(F)cc2)n1-c1ccc(Cl)cc1Cl |  |  | MIC |  | H37Rv |  | 12.2 µg/mL |
| CCC1CN(c2c(F)cc3c(=O)c(C(=O)O)cn(C4CC4)c3c2OC)CCN1 |  |  | MIC |  | Isolate TN7834 |  | 0.1 µg/mL |
| N/C(COc1ccc([N+](=O)[O-])cc1)=N/NC(=O)c1ccncc1 |  |  | MIC |  | ATCC 35828 (pyrazinamide-resistant) |  | 12.5 µg/mL |
| CCc1nc2cc(C)ccn2c1C(=O)NCc1ccc(S(F)(F)(F)(F)F)cc1 |  | resazurin | MIC90 |  | H37Rv |  | <2 µM |
| CC(=Nc1ccc(Cl)cc1N)c1c(O)cc(C)oc1=O |  | BACTEC | inhibition | 12.5 µg/mL | H37Rv |  | 39% |
| O=C1NC(NNC(=O)c2ccncc2)=N/C1=C\c1ccccc1Cl |  |  | MIC |  | Erdman |  | 3.13 µg/mL |
| COc1ccc(-c2noc(C3=CC4(CCN(CC5CCCO5)CC4)c4ccccc43)n2)cc1 |  | resazurin | MIC |  | H37Rv |  | 0.3 µM |
| CCN(CC)CCCC(C)Nc1cc(C)nc(Nc2nc3cc(Cl)c(Cl)cc3[nH]2)n1 |  | resazurin | MIC bound |  | H37Rv |  | >6.25 µg/mL |
| NC[C@@H]1O[C@H](O[C@H]2[C@@H](O)[C@H](O[C@@H]3[C@@H](O)[C@H](N)C[C@H](N)[C@H]3O[C@H]3O[C@H](CO)[C@@H](O)[C@H](O)[C@H]3N)O[C@@H]2CO)[C@H](N)[C@@H](O)[C@@H]1O |  |  | MIC |  | MTB13 (INH-R) |  | 0.75 µg/mL |
| CCCCn1cnc2ccc3nc(-c4ccccc4)c(-c4ccccc4)nc3c2c1=O |  | BACTEC | MIC |  | H37Rv |  | ≥12.5 µg/mL |
| CC[C@@H](CO)NCCN[C@@H](CC)CO | Streptomycin-resistant | resazurin | MIC |  | 136570 |  | 1.2 µM |
| O=C(O)CCCCCCCC(O)C(O)CCCCCCO |  | BACTEC | MIC bound |  | H37Rv |  | >12.5 µg/mL |
| CC(=O)c1ccc(N2CCN(C(=O)CC(C)C)CC2)cc1 |  | turbidity | MIC50 |  | BioA underexpression strain |  | >50 µM |
| Cc1cc2oc(=O)c(C3=NN(c4ccccc4)C(c4ccc(C(F)(F)F)cc4)C3)c(O)c2cc1C |  | agar | MIC90 |  | H37Rv |  | >6.25 µg/mL |
| c1ccc2c(c1)nc1cc(NC3CCCCC3)c(=NC3CCCCC3)cc-1n2C1CCCCC1 |  |  | MIC |  | PZA-R |  | 3.1 µg/mL |
| COc1cc(OC)c2cc([N+](=O)[O-])c3ccc(=O)oc3c2c1 |  | resazurin | MIC |  | MMDO |  | 50 µg/mL |
| CO[C@H]1/C=C/O[C@@]2(C)Oc3c(C)c(O)c4c(O)c(cc(OCC(=O)N(C)C(C)C)c4c3C2=O)NC(=O)/C(C)=C\C=C\[C@H](C)[C@H](O)[C@@H](C)[C@@H](O)[C@@H](C)[C@H](OC(C)=O)[C@@H]1C |  |  | MIC |  | H37Rv |  | 0.18 µg/mL |
| Cc1cc2oc(=O)c(C3=NN(c4ccccc4)C(c4ccccc4-c4ccccn4)C3)c(O)c2cc1C | Isoniazid-resistant | agar | MIC90 |  | INHR-MTB |  | >6.25 µg/mL |
| CC(C)n1c(-c2ccc(Cl)cc2Cl)cs/c1=N\NC(=O)COc1cnccn1 |  |  | MIC |  | H37Rv |  | 8.2 µg/mL |
| CC1COc2c(N3CCN(C)CC3)c(F)cc3c(=O)c(C(=O)O)cn1c23 | Streptomycin-resistant | resazurin | MIC |  | 136570 |  | 0.14 µM |
| O=C(/C=C/c1ccccc1Cl)c1ccc(F)cc1 |  | resazurin | MIC |  | H37Rv | 14 d | 32 µg/mL |
| COc1c(N2CCNC(C)C2)c(F)cc2c(=O)c(C(=O)O)cn(C3CC3)c12 |  |  | MIC |  | Strain 7 |  | 0.125 µg/mL |
| O=C1NC(NNC(=O)c2ccncc2)=N/C1=C\c1cccc(Cl)c1 |  |  | MIC |  | Erdman |  | 0.78 µg/mL |
| COc1ccc(C(=O)/C=C/c2ccccc2Cl)cc1 |  | resazurin | MIC |  | H37Rv | 7 d | 32 µg/mL |